Reference: patent US20060167229A1, “Biologically active peptide conjugates” (priority 2002, published 2006)

Test system: IL-2
Experiment: T lymphocyte IL-2 secretion test (HT-2 cell bioassay of ConA supernatant)
Type: in vivo, BALB/c mice
Conditions: healthy mice
Experimental: Spleen cells of density 1×10^6/ml were placed onto a 96 wells cell culture plate, 100 μL/well, three parallel wells each of the assay sample and control sample per mouse. To the assay wells, 100 μl/well ConA of 100 μg/ml in RPMI-1640 was added, and […] plain RPMI-1640 was used for the controls. The cells were incubated for 66 hrs at 37° C., 5% CO2. The cells were then pelleted by centrifugation at 150 g for 10 minutes. The supernatant was collected and stored at −20° C. for cytokines IL-2 and IFN determination.
HT-2 cells at log phase were collected by centrifugation at 150 g for 10 minutes, and washed three times with cold Hank's solution by re-suspension and centrifugation. The collected HT-2 cells were re-suspended in RPMI-1640 and incubated at 37° C., 5% CO2 for 30 minutes. The cells were further washed twice with RPMI-1640 by re-suspension and centrifugation, and re-suspended to final concentration of 2×10^5/ml with RPMI-1640.
The supernatant obtained in section 1.2 were diluted to the following percentage with RPMI-1640: 100%, 50%, 25%, 12.5%, 6.25%, and 3.125%.
rIL-2 was diluted to the following concentration with RPMI-1640: 500 IU/ml, 250 IU/ml, 125 IU/ml, 62.5 IU/ml, 31.25 IU/ml, and […].
The plate was incubated at 37° C., 5% CO2 for 68 hours, then centrifuged at 150 g for 15 minutes and the supernatant removed. 100 μl 0.5 mg/ml MTT in RPMI-1640 without phenolsulfonphthalein was added into each well. After shaking for 3-4 minutes to re-suspend the cells, continue to incubate for another 4 hours. Samples were then centrifuged at 150 g for 15 minutes and the supernatant was removed. To each well, 120 μl 40 mM HCl-2-propanol was added, mixed for 3-4 minutes and OD analyzed at 570 nm, referenced at 630 nm with an ELISA plate reader.
The average OD of the three parallel wells of each dilution was taken and plotted against concentration on a semi-log paper, concentration on the X-axis. The concentration at 50% OD saturation was obtained for both the testing supernatant and rIL-2.
Sample IL-2 activity=(sample dilution at 50% maximum action÷rIL-2 standard dilution at 50% maximum action)×activity of rIL-2 standard at 50% maximum action (IU/ml)

## IL-2: recombinant human IL (rhIL)-2, Shanghai Huaxin Biotech Inc.; positive control
Peptide 5 μg/kg/day i.p. 15 days (IFN-γ, IL-2 3×10^5 IU/kg/day), saline 37 ± 9
  activity of T lymphocyte in secreting IL-2, X ± SD (IU): 77 ± 13 IU
Peptide 50 μg/kg/day i.p. 15 days (IFN-γ, IL-2 3×10^5 IU/kg/day), saline 39 ± 10
  activity of T lymphocyte in secreting IL-2, X ± SD (IU): 72 ± 12 IU
Peptide 500 μg/kg/day i.p. 15 days (IFN-γ, IL-2 3×10^5 IU/kg/day), saline 39 ± 10
  activity of T lymphocyte in secreting IL-2, X ± SD (IU): 70 ± 13 IU
Peptide 0.51 g/kg/day (so in the source) i.p. 15 days (IFN-γ, IL-2 3×10^5 IU/kg/day), saline 38 ± 13
  activity of T lymphocyte in secreting IL-2, X ± SD (IU): 73 ± 13 IU
